Compound potency records, mixed from different reports. Data source: NIAID ChemDB in PubChem.

Shared fields: tests in culture; organism: HIV-1; cell line: MT-4; measure: inhibition

a–b is a range or a potency band. Lines come from different laboratories, so protocols vary. Blank or dashed fields: not listed here. Percent inhibition refers to the dose given; in toxicity tests it is the harm to the cells.

| structure | strain | mutations | method | dose | result |
|---|---|---|---|---|---|
| N#Cc1cc(Cl)cc(Oc2c(Cl)ccc3c2ncn3Cc2[nH]nc3ncccc23)c1 |  | K103N |  | 0.066 µM | >95% |
| Nc1ncnc2c1ncn2[C@@H]1O[C@H](CO)[C@H]1F |  |  | antigen | 100 µg/mL | >99.9% |
| Nc1ccn([C@H]2CC[C@@H](CO)O2)c(=O)n1 | IIIB |  | antigen | 0.5 µM | 96% |
| O=c1oc2cc(O)cc(O)c2c(O)c1-c1coc2c1c(=O)oc1cc(O)cc(O)c12 | IIIB |  | MTT | 0.1 µM | 55% |
| N#Cc1cc(Cl)cc(Oc2c(Cl)ccc3c2cnn3Cc2[nH]nc3nc(N)ccc23)c1 |  | Y181C |  | 0.068 µM | >95% |
| O=C(NCCc1ccccc1)Nc1nc(C(F)(F)F)cs1 |  |  | RT activity | 1 µg/mL | 97% |
| Nc1ncnc2c1ncn2[C@H]1C[C@@H](CO)O1 |  |  | antigen | 100 µg/mL | >99.9% |
| O=C(NCCc1ccccc1)Nc1ccc(F)cc1 |  |  | cytopathic effect / XTT | 10 µg/mL | 32–41% |
| CCCCCCCCCCCCCCCC(=O)OC[C@H]1O[C@@H](n2cnc3c(N)ncnc32)[C@@H]1CO |  |  | antigen | 10 µg/mL | 97% |
| CC1(C)[C@@H](O[C@H]2O[C@H](C(=O)O)[C@@H](O)[C@H](O)[C@H]2O[C@@H]2O[C@H](C(=O)O)[C@@H](O)[C@H](O)[C@H]2O)CC[C@]2(C)[C@H]3C(=O)C=C4[C@@H]5C[C@@](C)(C(=O)O)CC[C@]5(C)CC[C@@]4(C)[C@]3(C)CC[C@@H]12 | IIIB |  | antigen | 600 µM | 98.6% |
| O=C1[C@@H](Cc2ccccc2)NC(=S)N1c1ccccc1 |  |  | cytopathic effect / XTT | 1 µg/mL | 0–2% |
| CCCCC(=O)OC[C@H]1O[C@@H](n2cnc3c(N)ncnc32)[C@@H]1CO |  |  | antigen | 3 µg/mL | 95% |
| CN1C(=O)[C@@H](Cc2ccccc2)NC1=S |  |  | RT activity | 100 µg/mL | 94% |
| Nc1ncnc2c1ncn2[C@@H]1O[C@H](CO)[C@@H]1O |  |  | antigen | 10 µg/mL | 99.9% |
| Cc1nnc(NC(=O)NCCc2ccccc2)s1 |  |  | cytopathic effect / XTT | 10 µg/mL | 38% |
| N#Cc1cc(Cl)cc(Oc2cc(OCc3[nH]nc4ncccc34)ccc2Cl)c1 |  |  |  | 0.01 µM | >95% |

The last 2 rows once more:

Cc1nnc(NC(=O)NCCc2ccccc2)s1 ; method: cytopathic effect / XTT ; dose: 10 µg/mL ; result: 38%
N#Cc1cc(Cl)cc(Oc2cc(OCc3[nH]nc4ncccc34)ccc2Cl)c1 ; dose: 0.01 µM ; result: >95%